Anti-infective test results gathered from many reports (values: NIAID ChemDB through PubChem).

Shared fields: growth or infection tests; species: Mycobacterium tuberculosis

Inhibition is in % at the dose shown (toxicity tests: loss of growth or viability). MIC bound: limit read from a one-dose screen. ECn: concentration that inhibits the pathogen or its effect by n%. An empty or dashed field is not shown. MIC50, MIC90 and the like: level of inhibition, or share of isolates inhibited. Conditions beyond the fields shown may differ between rows.

SMILES,cells,dose,measure,read by,strain,result
Cc1c(N)c(=O)n(-c2ccccc2)n1C,-,-,MIC,-,H37Rv,>100 µg/mL
O=C1OC(=O)C2C1C1CCC2(C2OCCO2)O1,-,-,MIC bound,BACTEC,H37Rv,>12.5 µg/mL
CCCCCCCCCCCNCCNCCF,-,-,MIC,-,-,25 µM
O=C(O)/C=C\C(=O)Nc1ccc([N+](=O)[O-])cc1,-,-,MIC,-,H37Rv,>100 µg/mL
CC[C@H]1OC(=O)[C@H](C)[C@@H](O[C@H]2C[C@@](C)(OC)[C@@H](O)[C@H](C)O2)[C@H](C)[C@@H](O[C@@H]2O[C@H](C)C[C@H](N(C)C)[C@H]2O)[C@](C)(OC)C[C@@H](C)C(=O)[C@H](C)[C@@H](O)[C@]1(C)O,-,-,MBC,-,ATCC35838,>8 µg/mL
NCC[C@H](O)C(=O)N[C@@H]1C[C@H](N)[C@@H](O[C@H]2O[C@H](CN)[C@@H](O)[C@H](O)[C@H]2O)[C@H](O)[C@H]1O[C@H]1O[C@H](CO)[C@@H](O)[C@H](N)[C@H]1O,-,-,MIC,-,9S,2.5 µg/mL
CCOC(=O)Nc1cc(NC(c2ccccc2)c2ccccc2)c(N)c(N)n1,-,-,EC50,-,H37Rv,>12.5 µg/mL
CCCOc1ccccc1NC(=O)OCCN1CCCCC1,-,-,MIC,-,My 331/88,250 µM
O=C(Nc1ccccc1)OCc1nc2c([nH]1)C(=O)C=CC2=O,-,-,MIC bound,BACTEC,H37Rv,>12.5 µg/mL
CC[C@H]1OC(=O)[C@H](C)[C@@H](O[C@H]2C[C@@](C)(OC)[C@@H](O)[C@H](C)O2)[C@H](C)[C@@H](O[C@@H]2O[C@H](C)C[C@H](N(C)C)[C@H]2O)[C@](C)(OC)C[C@@H](C)C(=O)[C@H](C)[C@@H](O)[C@]1(C)O,-,-,MIC,-,38396,>4 µg/mL
CCOC(=O)Nc1cc2[nH]cnc2c(NC(c2ccccc2)c2ccccc2)n1,-,-,EC50,-,H37Rv,>12.5 µg/mL
CCCCCCCCCCCNCCNCc1ccccc1Sc1ccccc1CO,-,-,MIC,-,-,25 µM
Nc1ncn[nH]1,-,-,MIC,-,H37Rv,>100 µg/mL
[Cl-].[Cl-].c1ccc([P+](Cc2ccc(C[P+](c3ccccc3)(c3ccccc3)c3ccccc3)s2)(c2ccccc2)c2ccccc2)cc1,-,-,MIC bound,BACTEC,H37Rv,>12.5 µg/mL
CC(C)c1ccc2c(c1)CC[C@H]1[C@](C)(CNCCNC3CCCc4ccccc43)CCC[C@]21C,-,-,MIC,-,-,25 µM
O=C(Nc1ccccc1)c1ccco1,-,-,MIC,-,H37Rv,>100 µg/mL
CO[C@H]1/C=C/O[C@@]2(C)Oc3c(C)c(O)c4c(O)c(c(/C=N/N5CCN(C/C=C/c6ccccc6)CC5)c(O)c4c3C2=O)NC(=O)/C(C)=C\C=C\[C@H](C)[C@H](O)[C@@H](C)[C@@H](O)[C@@H](C)[C@H](OC(C)=O)[C@@H]1C,-,-,MBC,-,27 (rifampin-resistant),0.2 µg/mL
COc1ccc(CCc2cc(OC)c3ccccc3n2)cc1OC,-,-,MIC,-,MT2,25 µg/mL
CC[C@H]1OC(=O)[C@H](C)[C@@H](O[C@H]2C[C@@](C)(OC)[C@@H](O)[C@H](C)O2)[C@H](C)[C@@H](O[C@@H]2O[C@H](C)C[C@H](N(C)C)[C@H]2O)[C@](C)(O)C[C@@H](C)CN(C)[C@H](C)[C@@H](O)[C@]1(C)O,-,-,MBC,-,ATCC 35823,>8 µg/mL
O=S(=O)([O-])c1cc(I)c(O)c(I)c1.[Na+],-,-,MIC,-,H37Rv,>100 µg/mL
CC(=O)NC1=C(Cl)C(=O)c2ccccc2C1=O,-,12.5 µg/mL,inhibition,BACTEC,H37Rv,98%
COc1ccc(CCNCCNC[C@]2(C)CCC[C@]3(C)c4ccc(C(C)C)cc4CC[C@@H]23)cc1,-,-,MIC,-,-,25 µM
Br.Br.c1cnc2c(c1)-n1cccc1C1(CCSCC1)NN2,-,12.5 µg/mL,inhibition,BACTEC,H37Rv,3%
Nc1nccc(Oc2ccc(Cl)cc2)n1,-,-,MIC,-,H37Rv,>100 µg/mL
NC1CCN(c2nc3c(cc2F)c(=O)c(C(=O)O)cn3-c2ccc(F)cc2F)C1,-,-,MIC,-,ATCC 35828,8 µg/mL
COc1ccc(C(=O)CC(=O)Nc2ccccc2)cc1,-,-,MIC,-,H37Rv,50 µg/mL
Cc1c2c(n(C)c1C(=O)N1CCCCC1)CCCC2=O,-,-,MIC bound,BACTEC,H37Rv,>6.25 µg/mL
COc1ccc(NC(=O)OCC[NH+]2CCCC2)cc1,-,-,MIC,-,My 331/88,>1000 µM
C[C@@H]1CN(c2c(F)c(N)c3c(=O)c(C(=O)O)cn(C4CC4)c3c2F)C[C@H](C)N1,-,-,MBC90,-,MDR,2 µg/mL
c1cc[c]([Pb]([c]2ccccc2)([c]2ccccc2)[c]2ccccc2)cc1,-,-,MIC,-,H37Rv,>100 µg/mL
Nc1cc2nc3ccccc3nc2cc1N,-,-,MIC bound,BACTEC,H37Rv,>12.5 µg/mL
O=C(COc1cnccn1)N/N=c1\scc(-c2ccc(O)cc2)n1-c1ccc(Cl)cc1[N+](=O)[O-],-,-,MIC,-,H37Rv,7 µg/mL
C=CC1=C(C)C(=O)N/C1=C\c1[nH]c(Cc2[nH]c(/C=C3/NC(=O)C(C(C)SC(C)=O)=C3C)cc2CCC(=O)O)c(CCC(=O)O)c1C,-,12.5 µg/mL,inhibition,BACTEC,H37Rv,-13%
COc1ccc(CCC2CCc3ccccc3N2C)cc1OC,-,-,MIC,-,MT8,>100 µg/mL
c1ccc(NCCc2ccccn2)cc1,-,-,MIC,-,H37Rv,>100 µg/mL
Cc1cc(Cl)ccc1NC(=O)CC/C(CC(=O)C(C)C)=N\NC(=O)C[n+]1ccccc1.[Cl-],-,-,MIC,BACTEC,H37Rv,≥12.5 µg/mL
CCOC(=O)Nc1cc(N[C@@H](C)[C@H](O)c2ccccc2)c(N)c(N)n1,VERO,12.5 µg/mL,inhibition,-,H37Rv,99%
C1CNCC(C2CCCN2)C1.Cl,-,-,MIC,-,H37Rv,>100 µg/mL
CCCOc1ccc(NC(=O)OCCN2CCCC2)cc1,-,-,MIC,-,My 331/88,500 µM
CO[C@H]1/C=C/O[C@@]2(C)Oc3c(C)c(O)c4c(=O)c(c5oc6cc(N7CCN(C(C)C)CC7)cc(=O)c6nc5c4c3=C2O)NC(=O)/C(C)=C\C=C\[C@H](C)[C@H](O)[C@@H](C)[C@@H](O)[C@@H](C)[C@H](OC(C)=O)[C@@H]1C,-,-,MIC,-,3125 (rifampin-sensitive),0.025 µg/mL
CCCCC(CC)CN1CN(CC(CC)CCCC)CC(C)(NCCNCCCCO)C1,-,-,MIC,-,-,12.5 µM
CCC/C=C/C=C/C(=O)O[C@H]1[C@H](C)[C@@]2(O)[C@@H]3C=C(C)C(=O)[C@H]3CC(COC(C)=O)=C[C@@H]2[C@H]2C(C)(C)[C@@]12OC(C)=O,-,-,MIC bound,BACTEC,H37Rv,>12.5 µg/mL
O=C(COc1cnccn1)N/N=c1\scc(-c2ccccc2)n1-c1ccc(Cl)cc1Cl,-,-,MIC,-,H37Rv,23 µg/mL
Cc1nc2ccccc2cc1Cl,-,-,MIC,-,H37Rv,>100 µg/mL
O=C(/C=C/c1ccccc1)c1cc(-c2ccccc2)ccc1O,-,-,EC50,-,-,<12.5 µg/mL
O=C1CCCCCCCCCCCCCCCO1,-,-,MIC,-,ETA-R,>12.8 µg/mL
CCCCCCCOc1ccccc1NC(=O)OCCN(C)C,-,-,MIC,-,My 331/88,16 µM
Clc1ccccc1CCNCCNCCCCc1ccccc1,-,-,MIC,-,-,25 µM
CCCOc1cccc(NC(=O)OCCN2CCCCCC2)c1,-,-,MIC,-,My 331/88,125 µM
COc1ccc(/C=C/C(=O)c2cccc(I)c2O)cc1,-,-,EC50,-,H37Rv,>12.5 µg/mL
NC(=O)c1cnccn1,-,-,MIC,-,Isolate K10452,>500 µg/mL
CC(CNC1CCCCCCC1)NCC12CC3CC(CC(C3)C1)C2,-,-,MIC,-,-,25 µM
OC(c1cc(-c2ccccc2)nc2cc(Cl)ccc12)C1CCCCN1,-,6.25 µg/mL,inhibition,resazurin,H37Rv,99%
O=C1CC(c2ccccc2)Oc2cc(Br)ccc21,-,12.5 µg/mL,inhibition,-,-,15%
CCCCCOc1ccc(NC(=O)OCCN2CCCCCC2)cc1,-,-,MIC,-,My 331/88,32 µM
CCN(CC)CC(O)CC#N,-,-,MIC,-,H37Rv,>100 µg/mL
CC1COc2c(N3CCN(C)CC3)c(F)cc3c(=O)c(C(=O)O)cn1c23,-,-,MIC,BACTEC,07-10342,0.5 µg/mL
CCOC(=O)Nc1cc2c(c(N)n1)N=C(c1ccccc1)C(C)(C)S2,-,-,EC50,-,H37Rv,<12.5 µg/mL
CC(C)Cn1c(-c2ccccc2)cs/c1=N\NC(=O)COc1cnccn1,-,-,MIC,-,H37Rv,18 µg/mL
CC1C(=NO)C(C)C(c2ccccc2)N(N=O)C1c1ccccc1,-,-,MIC bound,resazurin,H37Rv,>6.25 µg/mL
Cc1cc(=O)cc(C)[nH]1,-,-,MIC,-,H37Rv,>100 µg/mL
COc1cccc(NC(=O)OCCN2CCCCC2)c1,-,-,MIC,-,My 331/88,1000 µM
CCN(C(=O)C(C)C)c1ccccc1,-,-,MIC,-,H37Rv,>100 µg/mL
COc1cc(OC)c2c(c1)OC(c1ccc(OC)c(I)c1)CC2=O,-,-,EC50,-,H37Rv,>12.5 µg/mL
CO[C@H]1/C=C/O[C@@]2(C)Oc3c(C)c(O)c4c(O)c(c(/C=N/N5CCN(C)CC5)c(O)c4c3C2=O)NC(=O)/C(C)=C\C=C\[C@H](C)[C@H](O)[C@@H](C)[C@@H](O)[C@@H](C)[C@H](OC(C)=O)[C@@H]1C,-,-,MIC,-,TN804,>32 µg/mL
NNC(=O)c1c(O)ccc2ccccc12,-,12.5 µg/mL,inhibition,BACTEC,H37Rv,18%
NCC[C@H](O)C(=O)N[C@@H]1C[C@H](N)[C@@H](O[C@H]2O[C@H](CN)[C@@H](O)[C@H](O)[C@H]2O)[C@H](O)[C@H]1O[C@H]1O[C@H](CO)[C@@H](O)[C@H](N)[C@H]1O,-,-,MIC,-,H37Rv,1 µg/mL
CCOC(=O)Nc1cc(NCC(O)CN(C)C)c([N+](=O)[O-])c(N)n1,-,-,EC50,-,H37Rv,>12.5 µg/mL
COC1/C=C\C=C(\C)C(=O)NC2=CC(=O)C(=O)C(=C2O)CC(C)CC(OC)C(O)C(C)/C=C(/C)C1OC(N)=O,-,-,MIC bound,BACTEC,H37Rv,>12.5 µg/mL
CC(=O)SCC(=O)Nc1cc(Cl)c(C)c(Cl)c1O,-,-,MIC,-,H37Rv,>100 µg/mL
C/C(CCn1[nH]c(=O)ccc1=O)=N\NC(=O)C(=O)NN,-,12.5 µg/mL,inhibition,BACTEC,H37Rv,11%
C[C@H]1COc2c(N3CCN(C)CC3)c(F)cc3c(=O)c(C(=O)O)cn1c23,-,-,MIC,-,9S,0.5 µg/mL
O=C1C(=O)C(Br)(Br)C(Br)=C1Br,-,-,MIC,-,H37Rv,100 µg/mL
Nc1[nH]c(=S)nc2nc3c4ccccc4c4ccccc4c3nc12,-,12.5 µg/mL,inhibition,BACTEC,H37Rv,19%
Nc1ccc2cc(S(=O)(=O)O)ccc2c1,-,-,MIC,-,H37Rv,>100 µg/mL
O=C1N=NC(=O)C2NC=NC12,-,12.5 µg/mL,inhibition,BACTEC,H37Rv,0%
CCCCNc1ccc(Br)c2c1C(=O)c1c(Br)ccc(NCCCC)c1C2=O,-,-,MIC,-,H37Rv,>100 µg/mL
CC1(C)Cc2[nH]c3ccccc3c(=O)c2-c2nc3ccccc3c(=O)n21,-,12.5 µg/mL,inhibition,BACTEC,H37Rv,-36%
CC1COc2c(N3CCN(C)CC3)c(F)cc3c(=O)c(C(=O)O)cn1c23,-,-,MIC90,-,DRUG-SUS,0.5 µg/mL
CCCCCCCCCCOc1cccc(NC(=O)OCCN2CCOCC2)c1,-,-,MIC,-,My 331/88,16 µM
NC(N)=Nc1nc2ccc(Cl)cc2[nH]1,-,6.25 µg/mL,inhibition,resazurin,H37Rv,23%
CCOC(=O)c1cc(-c2ccccc2)nc2ccc(OC)cc12,-,-,MIC,-,H37Rv,25 µg/mL
NNOC(=O)COc1cnccn1,-,-,MIC,-,H37Rv,>200 µg/mL
CN[C@@H]1[C@H](O[C@H]2[C@H](O[C@H]3[C@H](O)[C@@H](O)[C@H](N=C(N)N)[C@@H](O)[C@@H]3N=C(N)N)O[C@@H](C)[C@]2(O)C=O)O[C@@H](CO)[C@H](O)[C@H]1O,-,-,MIC,-,91196,<2 µg/mL
Cl.NNC(=O)Nc1ccccc1,-,-,MIC,-,H37Rv,>100 µg/mL
COc1ccccc1CCNCCNC(C)Cc1ccc(Cl)cc1,-,-,MIC,-,-,50 µM

Repeating the final 4 entries:

SMILES	cells	dose	measure	read by	strain	result
NNOC(=O)COc1cnccn1	-	-	MIC	-	H37Rv	>200 µg/mL
CN[C@@H]1[C@H](O[C@H]2[C@H](O[C@H]3[C@H](O)[C@@H](O)[C@H](N=C(N)N)[C@@H](O)[C@@H]3N=C(N)N)O[C@@H](C)[C@]2(O)C=O)O[C@@H](CO)[C@H](O)[C@H]1O	-	-	MIC	-	91196	<2 µg/mL
Cl.NNC(=O)Nc1ccccc1	-	-	MIC	-	H37Rv	>100 µg/mL
COc1ccccc1CCNCCNC(C)Cc1ccc(Cl)cc1	-	-	MIC	-	-	50 µM